{"source": "paper PMC8371691", "about": "“‘Candidatus Liberibacter asiaticus’ Multimeric LotP Mediates Citrus sinensis Defense Response Activation” (2021)", "experiment_in_all_cases": "SEC", "key": {"[1]": {"target": "His.EK.LotP ('Candidatus Liberibacter asiaticus')"}, "[2]": {"target": "His.EK.LotP.FLAG ('Candidatus Liberibacter asiaticus')"}, "[3]": {"target": "His.EK.LotP^R104A ('Candidatus Liberibacter asiaticus')"}}}
{"substance": "His.EK.LotP (natural protein)", "values": [{"measurement": "stoichiometry N", "setting": "[1]", "value": 2}]}
{"substance": "His.EK.LotP.FLAG (natural protein)", "values": [{"measurement": "stoichiometry N", "setting": "[2]", "value": 2}]}
{"substance": "His.EK.LotP^R104A (natural protein)", "values": [{"measurement": "stoichiometry N", "setting": "[3]", "value": 6}]}
